Anti-infective test results gathered from many reports (values: NIAID ChemDB through PubChem).

Shared fields: cytotoxicity tests; cell line: BCBL-1; read-out: CC50

CCn: concentration that lowers growth or viability of the cells by n%. Blank or dashed fields: not listed here. Lines come from different laboratories, so protocols vary.

SMILES,method,result
CCc1cn([C@H]2C[C@H](O)[C@@H](CO)O2)c(=O)[nH]c1=O,cell count,215 µM
CCCCCCCC/C=C\CCCCCCCOCCCOP1(=O)CO[C@@H](Cn2ccc(N)nc2=O)CO1,-,>0.9 µM
Nc1nc2c(ncn2/C=C2/CC2(CO)CO)c(=O)[nH]1,-,125 µM
Cn1cc(C(=O)NCc2ccc(Cl)cc2)c(=O)c2cc(CN3CCOCC3)ccc21,MTS,>23.5 µM
CCCCCCCCCCCCCCCCOP(=O)(O)CO[C@H](CO)Cn1ccc(N)nc1=O,-,>1 µM
Nc1nc(OCC2CC2)c2ncn(/C=C3/C[C@@H]3CO)c2n1,-,130 µM
O[C@@H]1[C@H](O)[C@H](O)CO[C@H]1n1c(Br)nc2cc(Cl)c(Cl)cc21,-,>126 µM
COc1nc(N)nc2c1ncn2/C=C1/CC1(CO)CO,-,159 µM
Nc1ccn(C[C@H]2COP(=O)(O)CO2)c(=O)n1,-,>166 µM
OC[C@H]1O[C@@H](n2c(Br)nc3cc(Cl)c(Cl)cc32)[C@H](O)[C@@H]1O,-,>125 µM
Nc1nc2c(ncn2COC(CO)CO)c(=O)[nH]1,cell count,239 µM
Nc1ccn(C[C@@H](CO)OCP(=O)(O)O)c(=O)n1,-,>159 µM
O=c1[nH]c(=O)n([C@H]2C[C@H](O)[C@@H](CO)O2)cc1-c1ccc(Br)s1,cell count,>500 µM
C=CCOc1nc(N)nc2c1ncn2/C=C1/C[C@@H]1CO,-,118 µM

A second listing of 2 rows from above:

SMILES,method,result
Nc1nc2c(ncn2COC(CO)CO)c(=O)[nH]1,cell count,239 µM
Nc1nc2c(ncn2/C=C2/CC2(CO)CO)c(=O)[nH]1,-,125 µM